A mixed list of measured activities; the numbers were collected in NIAID ChemDB.

Shared fields: tests in culture; agent: Mycobacterium tuberculosis

Lines come from different laboratories, so protocols vary. Inhibition is in % at the dose shown (toxicity tests: loss of growth or viability). ECn: concentration that inhibits the pathogen or its effect by n%. MIC bound: limit read from a one-dose screen. MIC50, MIC90 and the like: level of inhibition, or share of isolates inhibited. An empty or dashed field is not shown.

SMILES,measure,changes,cell line,read by,dose,strain,conditions,result
O=C1c2cc(Br)ccc2OP(=O)(c2ccccc2)N1c1ccc(C(F)(F)F)cc1,MIC,,,,,7357/1998,21 d,1 µM
CO[C@H]1/C=C/O[C@@]2(C)Oc3c(C)c(O)c4c(O)c(c5c(c4c3C2=O)NC2(CCN(CC(C)C)CC2)N=5)=NC(=O)/C(C)=C\C=C\[C@H](C)[C@H](O)[C@@H](C)[C@@H](O)[C@@H](C)[C@H](OC(C)=O)[C@@H]1C,MIC,,,,,H37Rv,,0.062 µg/mL
O=C(Nc1ccc(C(F)(F)F)cc1)c1cc(Br)ccc1OP(=O)(OCc1ccccc1)OCc1ccccc1,MIC,,,,,My 331/88,14 d,8 µM
Nc1ccc(C(=O)O)c(O)c1,Median MIC,,,,,H37Rv,,0.5 µg/mL
Nc1ccc2c(-c3ccccc3)cc(N3CCCCC3)nc2n1,inhibition,,,,6.25 µg/mL,H37Rv,,91%
O=C(N/N=C/c1ccc([N+](=O)[O-])s1)c1ccc(Cl)cc1,inhibition,,,,6.25 µg/mL,H37Rv,,96%
NNC(=O)c1ccncc1,MIC,,,,,Clinical isolate 8,,5 µg/mL
C[C@H]1ON2CCC[C@@H]2[C@@H]1C(=O)N1C2CC3CCC2(CS1(=O)=O)C3(C)C,inhibition,,,BACTEC,12.5 µg/mL,H37Rv,,0%
CC1=C(C(=O)Nc2cccc([N+](=O)[O-])c2)C(c2ccccc2)C(C(=O)Nc2cccc([N+](=O)[O-])c2)=C(C)N1,EC50,,,,,H37Rv,,<2.5 µg/mL
CCCCCCCCCCCCCCCCS(=O)(=O)Nc1cc(C(=O)NN)cc(C(=O)NN)c1,MIC bound,,,BACTEC,,H37Rv,,>12.5 µg/mL
N#Cc1ccc2c(c1)[n+]([O-])c(C#N)c(N)[n+]2[O-],MIC,,,,,H37Rv,,<12.5 µg/mL
CC1=C(C(=O)Nc2ccc(C)cc2C)C(c2cccc([N+](=O)[O-])c2)C(C(=O)Nc2ccc(C)cc2C)=C(C)N1,inhibition,,,,2.5 µg/mL,H37Rv,,53%
CO[C@H]1/C=C/O[C@@]2(C)Oc3c(C)c(O)c4c(O)c(c(/C=N/N5CCN(C)CC5)c(O)c4c3C2=O)NC(=O)/C(C)=C\C=C\[C@H](C)[C@H](O)[C@@H](C)[C@@H](O)[C@@H](C)[C@H](OC(C)=O)[C@@H]1C,MIC,,,,,Clinical isolate 14,,0.5 µg/mL
O=C(N/N=C/c1ccccc1F)c1ccc(F)cc1,MIC,,,,,H37Rv,,>6.25 µg/mL
Oc1cc(O)c2c(c1)OC(c1ccc(O)c(O)c1)C(O)C2c1c(O)cc(O)c2c1OC(c1ccc(O)c(O)c1)C(O)C2,inhibition,,,BACTEC,12.5 µg/mL,H37Rv,,-8%
O=C(Nc1ccc(Cl)cc1)c1cc(Cl)ccc1OP(=O)(Oc1ccccc1)c1ccccc1,MIC,,,,,My 331/88,14 d,4 µM
CCOC(=O)Nc1c(C#N)[n+]([O-])c2cc(C)c(C)cc2[n+]1[O-],inhibition,,,,6.25 µg/mL,H37Rv,,99%
c1ccc(-c2cc3ccc(N4CCCCC4)nc3nc2N2CCCCC2)cc1,inhibition,,VERO,,6.25 µg/mL,H37Rv,,99%
CC1COc2c(N3CCN(C)CC3)c(F)cc3c(=O)c(C(=O)O)cn1c23,MIC90,,,,,206 isolates (susceptible),,1 µg/mL
c1ccc(-c2cc(N3CCCCC3)nc3nc(N4CCCCC4)ccc23)cc1,MIC,,VERO,,,H37Rv,,6.25 µg/mL
COc1nc(=O)n([C@H]2C=CC(=O)O2)cc1F,MIC bound,,,BACTEC,,H37Rv,,>12.5 µg/mL
CC(C)OC(=O)c1cc[n+](CC(=O)c2ccccc2)cc1.[Br-],MIC,XDR,,resazurin,,,,2 µg/mL
Cc1csc(NC(=O)C2C3CCC(O3)C2C(=O)O)n1,inhibition,,,BACTEC,12.5 µg/mL,H37Rv,,-8%
CCn1c(-c2ccc(N=Nc3c(C)[nH][nH]c3=O)cc2)n[nH]c1=S,MIC,,,,,H37Rv,,>12.5 µg/mL
O=C1c2cc(Cl)ccc2OP(=O)(c2ccccc2)N1c1ccc(C(F)(F)F)cc1,MIC,,,,,Praha 131,21 d,1 µM
CC(C)N=c1cc2n(-c3ccc(Cl)cc3)c3ccccc3nc-2cc1Nc1ccc(Cl)cc1,Median MIC,,,,,H37Rv,,0.23 µg/mL
Cc1[nH][nH]c(=O)c1N=Nc1ccc(-c2n[nH]c(=O)n2-c2ccccc2)cc1,inhibition,,,,12.5 µg/mL,H37Rv,,0%
Cl.NCCN1C(=O)S/C(=C/c2ccccc2)C1=O,inhibition,,,BACTEC,12.5 µg/mL,H37Rv,,13%
CO[C@H]1/C=C/O[C@@]2(C)Oc3c(C)c(O)c4c(O)c(c(/C=N/N5CCN(C)CC5)c(O)c4c3C2=O)NC(=O)/C(C)=C\C=C\[C@H](C)[C@H](O)[C@@H](C)[C@@H](O)[C@@H](C)[C@H](OC(C)=O)[C@@H]1C,Median MIC,,,,,H37Ra,,0.005 µg/mL
Cc1ccccc1C(C#N)C(=O)C(=O)Nc1nc([N+](=O)[O-])cs1,MIC bound,,,resazurin,,H37Rv,,>6.25 µg/mL
O=C(N/N=C/c1ccc([N+](=O)[O-])cc1[N+](=O)[O-])c1ccc(F)cc1,EC50,,,,,H37Rv,,>6.25 µg/mL
CC(=O)O[C@H]1C[C@@]2(C)[C@@H](C[C@@H](O)[C@H]3[C@@]4(C)CC[C@@H](O)[C@@H](C)[C@@H]4CC[C@@]32C)/C1=C(\CCC=C(C)C)C(=O)O,Mean MIC,,,,,H37Rv,,8.5 µg/mL
CCOC(=O)Nc1c(C#N)[n+]([O-])c2ccccc2[n+]1[O-],inhibition,,,,6.25 µg/mL,H37Rv,,97%
CCC1CN(c2c(F)cc3c(=O)c(C(=O)O)cn(C4CC4)c3c2OC)CCN1,MIC,,,,,Isolate TN2156,,0.3 µg/mL
CCC(C)OC(=O)N1CCN(c2nc3nc(N4CCOCC4)ccc3cc2-c2ccccc2)CC1,inhibition,,,,6.25 µg/mL,H37Rv,,64%
CCN(CC)c1ccc2[nH]c3c(C([NH3+])=O)cc(=O)c(=O)c=3oc2c1,inhibition,,,BACTEC,12.5 µg/mL,H37Rv,,-1%
O=C(N/N=C/c1ccc([N+](=O)[O-])s1)c1ccc(F)cc1,inhibition,,,,6.25 µg/mL,H37Rv,,99%
CC1=C(C(=O)Nc2ccccc2Cl)C(c2ccccc2Cl)C(C(=O)Nc2ccccc2Cl)=C(C)N1,EC50,,,,,H37Rv,,>2.5 µg/mL
CN1c2ccccc2CCC1CCc1ccc2c(c1)OCO2,MIC,,,,,MT1,,>100 µg/mL
COc1ccc2cc(-c3ccccc3)c(N3CCNCC3)nc2n1,inhibition,,,,6.25 µg/mL,H37Rv,,67%
O=C1c2cc3ccccc3cc2NC(O)c2cccn21,MIC bound,,,BACTEC,,H37Rv,,>12.5 µg/mL
Nc1ccc(C(=O)O)c(O)c1,MIC,,,,,Clinical isolate 1,,2 µg/mL
c1ccc(-c2cc3ccc(N4CCNCC4)nc3nc2N2CCNCC2)cc1,inhibition,,,,6.25 µg/mL,H37Rv,,73%
CC[C@H]1OC(=O)[C@H](C)[C@@H](O[C@H]2C[C@@](C)(OC)[C@@H](O)[C@H](C)O2)[C@H](C)[C@@H](O[C@@H]2O[C@H](C)C[C@H](N(C)C)[C@H]2O)[C@](C)(OC)C[C@@H](C)C(=O)[C@H](C)[C@@H](O)[C@]1(C)O,Median MIC,,,,,H37Ra,,6 µg/mL
CO[C@H]1C[C@@H]2\C=C(C)/C=C/C=C\C(=O)N[C@H](c3ccccc3)C/C=C/CC[C@H](O)CC(=O)C2=C1O,MIC bound,,,BACTEC,,H37Rv,,≤12.5 µg/mL
CCCCS(=O)(=O)Nc1ccc2[nH]c(C(=O)NC(C)C3CC3)c(C)c2c1,MIC90,,,resazurin,,H37Rv,,3.1 µM
CN[C@@H]1[C@@H](O)[C@@H](O[C@@H]2[C@@H](O)[C@H](O[C@H]3O[C@H](CN)CC[C@H]3N)[C@@H](N)C[C@H]2N)OC[C@]1(C)O,Median MIC,,,,,H37Rv,,6 µg/mL
O=C(N/N=C/c1ccc(Br)cc1)c1ccc(F)cc1,EC50,,,,,H37Rv,,>6.25 µg/mL
O=c1[nH]nc(-c2ccc([N+](=O)[O-])o2)c(=O)[nH]1,inhibition,,,BACTEC,12.5 µg/mL,H37Rv,,54%
CCn1cc(C(=O)O)c(=O)c2cc(F)c(N3CCN(C)CC3)cc21,MIC50,,,,,9 isolates (RMP INH-S),,8 µg/mL
CCCCCc1cc(OC)c2ccccc2n1,MIC,,,,,MT6,,6.25 µg/mL
O=c1ccc2c(-c3ccccc3)cc(N3CCN(c4ccccc4)CC3)nc2[nH]1,MIC,,,,,H37Rv,,>6.25 µg/mL
C[C@@H]1CN(c2c(F)c(N)c3c(=O)c(C(=O)O)cn(C4CC4)c3c2F)C[C@H](C)N1,MIC,,,,,900240,,0.2 µg/mL
Cc1c(F)c(N2CCNC(C)C2)cc2c1c(=O)c(C(=O)O)cn2C1CC1,MIC90,,,,,44 isolates (resistant),,2 µg/mL
Cc1ccc2c(=O)n(C)c(=O)n(C)c2n1,MIC bound,,,BACTEC,,H37Rv,,>12.5 µg/mL
Clc1ccc2c(-c3ccccc3)cc(N3CCN(c4ccccc4)CC3)nc2n1,MIC,,,,,H37Rv,,>6.25 µg/mL
CCCCS(=O)(=O)Nc1ccc2[nH]c(C(N)=O)c(C)c2c1,MIC90,I145T DG167-resistant,,resazurin,,DRM167 8x3,,>100 µM
Cc1[nH][nH]c(=O)c1N=Nc1ccc(C(=O)N/N=C/c2ccc(F)cc2)cc1,MIC,,,,,H37Rv,,>12.5 µg/mL
CCCCS(=O)(=O)Nc1ccc2[nH]c(C(=O)NC(C)CC)c(C)c2c1,MIC90,,,resazurin,,H37Rv,,3.1 µM
O=C1C(=O)N(c2cccc(Cl)c2)C(=O)N1Cc1ccccc1,inhibition,,,BACTEC,12.5 µg/mL,H37Rv,,88%
CCOC(=O)/C(N=Nc1ccc(-c2n[nH]c(=S)n2CC)cc1)=C(\C)O,EC50,,,,,H37Rv,,>12.5 µg/mL
Nc1ccc2c(-c3ccccc3)cc(N3CCOCC3)nc2n1,inhibition,,,,6.25 µg/mL,H37Rv,,47%
O=C(Nc1ccc(C(F)(F)F)cc1)c1cc(Cl)ccc1OP(=O)(c1ccccc1)c1ccccc1,MIC,,,,,7357/1998,21 d,1 µM
CSc1nc(NC2OC(COC(C)=O)C(OC(C)=O)C(OC(C)=O)C2OC(C)=O)c(-c2csc(N)n2)c(=O)n1C,MIC bound,,,BACTEC,,H37Rv,,>12.5 µg/mL
CN(C)c1ccc(O)c2c1C[C@H]1C[C@H]3[C@H](N(C)C)C(=O)C(C(N)=O)=C(O)[C@@]3(O)C(=O)C1=C2O,Median MIC,,,,,H37Ra,,1 µg/mL
O=C(Nc1ccccc1)c1ccccc1OP(=O)(OCc1ccccc1)OCc1ccccc1,MIC,,,,,My 331/88,7 d,125 µM
CO[C@H]1/C=C/O[C@@]2(C)Oc3c(C)c(O)c4c(O)c(c(/C=N/N5CCN(C6CCCC6)CC5)c(O)c4c3C2=O)NC(=O)/C(C)=C\C=C\[C@H](C)[C@H](O)[C@@H](C)[C@@H](O)[C@@H](C)[C@H](OC(C)=O)[C@@H]1C,Median MIC,,,,,H37Ra,,0.0031 µg/mL
[N-]=[N+]=N[C@H]1[C@H](O)[C@@H](CO)O[C@H]1n1cnc2c(N)ncnc21,inhibition,,,BACTEC,12.5 µg/mL,H37Rv,,-3%
CN(C)CCCNC(=O)Nc1c(C#N)[n+]([O-])c2cc(F)ccc2[n+]1[O-],inhibition,,,,6.25 µg/mL,H37Rv,,0%
Nc1c(Br)cc2snc3c2c1C(=O)c1ccccc1-3,MIC,,,BACTEC,,H37Rv,,12.5 µg/mL
CC1=C(C(=O)Nc2ccccc2Cl)C(c2ccccc2O)C(C(=O)Nc2ccccc2Cl)=C(C)N1,EC50,,,,,H37Rv,,>2.5 µg/mL
CC(C)=CN=Cc1nc(Cc2ccccc2)oc1O.O=C(O)C(F)(F)F,inhibition,,,BACTEC,12.5 µg/mL,H37Rv,,18%
O=C(N/N=C/c1cccs1)c1ccccc1,MIC,,,,,H37Rv,,>6.25 µg/mL
CO[C@H]1/C=C/O[C@@]2(C)Oc3c(C)c(O)c4c(=O)c(c5oc6cc(N7CCN(CC(C)C)CC7)cc(=O)c6nc5c4c3=C2O)NC(=O)/C(C)=C\C=C\[C@H](C)[C@H](O)[C@@H](C)[C@@H](O)[C@@H](C)[C@H](OC(C)=O)[C@@H]1C,MBC,,,,,Atencio,,0.008 µg/mL
Cc1cc2n(n1)C(=O)CC(=O)C2,inhibition,,,resazurin,6.25 µg/mL,H37Rv,,25%
CCn1c(-c2ccc(N=Nc3c(C)[nH]n(-c4ccccc4)c3=O)cc2)n[nH]c1=S,EC50,,,,,H37Rv,,<12.5 µg/mL
CN(C)c1ccc(O)c2c1C[C@H]1C[C@H]3[C@H](N(C)C)C(=O)C(C(N)=O)=C(O)[C@@]3(O)C(=O)C1=C2O,inhibition,,,BACTEC,12.5 µg/mL,H37Rv,,99%
CCCCS(=O)(=O)Nc1ccc2[nH]c(C(=O)NC3CCC3)c(C)c2c1,MIC90,,,resazurin,,H37Rv,,1.56 µM
Nc1cccc(C(=O)[O-])c1,MIC,,,BACTEC,,H37Rv,,≥128 µg/mL
CCCCS(=O)(=O)Nc1ccc2[nH]c(C(=O)NC3COC3)c(C)c2c1,MIC90,,,resazurin,,H37Rv,,100 µM
O=C(Nc1ccc(C(F)(F)F)cc1)c1cc(Cl)ccc1OP(=O)(Oc1ccccc1)Oc1ccccc1,MIC,,,,,My 331/88,14 d,2 µM

Repeating the final 4 entries:

SMILES | measure | changes | cell line | read by | dose | strain | conditions | result
CCCCS(=O)(=O)Nc1ccc2[nH]c(C(=O)NC3CCC3)c(C)c2c1 | MIC90 |  |  | resazurin |  | H37Rv |  | 1.56 µM
Nc1cccc(C(=O)[O-])c1 | MIC |  |  | BACTEC |  | H37Rv |  | ≥128 µg/mL
CCCCS(=O)(=O)Nc1ccc2[nH]c(C(=O)NC3COC3)c(C)c2c1 | MIC90 |  |  | resazurin |  | H37Rv |  | 100 µM
O=C(Nc1ccc(C(F)(F)F)cc1)c1cc(Cl)ccc1OP(=O)(Oc1ccccc1)Oc1ccccc1 | MIC |  |  |  |  | My 331/88 | 14 d | 2 µM